Measured values: patent US20050124645A1, “Methods and compositions for increasing CD4lymphocyte immune responsiveness” (priority 1998, published 2005)
“Also recorded” adds a separate entry of the source.

Assays:
HIV LTR = HIV LTR driven luciferase in HeLa cells transfected with IL-2 receptor chains and JAK3; format: cell-based; settings: with or without Nef vector, presence or absence of IL-2, FIG. 12E
Source text: HeLa cells were also transfected with vectors containing an HIV LTR driven luciferase, IL-2 receptor chains and JAK3. The cells were also transfected with a vector with or without Nef and cultured in the presence or absence of IL-2. […] Therefore, Nef alone is sufficient to alter LTR activity.

[1] = system: purified human CD4+ T cells; test: Anti-TCR induced proliferation ([3H]-thymidine) of CD4-ligated purified CD4+ T cells, rescue by cytokines; format: cell-based
Description: Heparinized venous blood from healthy adult human donors was separated on a Ficoll-Paque (Pharmacia Biotech) gradient to obtain lymphocytes. CD4^+ T cells were isolated by incubation with anti-CD8 mAb (OKT8, 20 Ag/ml, ATCC), followed by negative selection on goat anti-mouse IgG coated Immulan beads (Biotecx Laboratories).
Specifically, the purified CD4^+ T cells in balanced salts solution were incubated with or without gp120 (rgp120SF2, 10 μg/ml) and crosslinked with anti-gp120 antibody (1:250 dilution) or anti-CD4 mAb (anti-CD4, Leu-3α, 20 μg/ml) for 1 hr at 37° C.
Proliferation in response to plate-bound anti-TCR was determined as follows. Cells were washed, resuspended in RPMI-1640 culture media (GIBCO) supplemented with 10% fetal bovine serum (FBS, Gemini BioProducts) and 1×10^5 cells were added to triplicate wells of an anti-T cell receptor monoclonal antibody-coated (anti-TCR, BMA-031, 50 μg/ml) 96-well plate (Becton Dickinson). […] Culture plates were incubated for 3 days at 37° C. with 1 μCi/Well [^3H]-thymidine (NEN) present during the final 5 hours of culture. The cells were harvested and processed to determine ^3H-thymidine incorporation.

IL-2R (α-chain, CD25) = test: Activation-induced IL-2R (CD25) expression on CD4 primed T cells by flow cytometry; format: cell-based, human; settings: 20 U/ml cytokine; 24 hours; FIGS. 2A, 2B
Description: Expression of high affinity IL-2R (CD25) was also analyzed in CD4 primed T cells. To determine the expression of IL-2R (α-chain, CD25), the culture plates were set up as described in Example 1 and incubated at 37° C. for 24 hours. 2×10^5 cells were stained with FITC-conjugated anti-CD25 mAb (Pharmingen) and analyzed by flow cytometry (Coulter XL).

JAK3 [2] = test: JAK3 expression (Western blot) in mock- or HIV-1 NL4-3-infected CD4+ T cell PHA blasts; format: cell-based, human; settings: mock-infected and HIV infected cultures; 20 U/ml; 48 hours; FIGS. 8A, 8B
Description: In this experiment, purified human CD4^+ T cells isolated as described above and activated with PHA for 3 days were infected for 4 days with a laboratory cloned strain of HIV-1, NL4-3. […] After the infection period, 0.5×10^6 cells per well were incubated at 37° C. in an anti-CD3 mAb coated (anti-CD3, OKT3, 10 μg/ml) plate for 48 hours in the presence of 20 U/ml recombinant IL-2 or IL-7. Cells were harvested and lysed with TBS/1% NP40 and analyzed on 7.5% SDS PAGE. Western blots using anti-JAK3 or anti-actin were prepared as described in Example 3.

JAK3 [3] = test: JAK3 kinase activity (phosphorylation of STAT5) in peripheral blood T cells of an HIV-infected patient; format: cell-based, human; settings: anti-CD3 stimulation; rIL-2 20 U/ml; FIG. 10
Description: Peripheral blood T cells isolated 5 from a healthy, non-infected donor served as a control. 0.5×10^6 cells per-well (24 well culture plate) were incubated at 37° C. in an anti-CD3 mAb coated (anti-CD3, OKT3, 10 μg/ml) plate for in the presence and absence of rIL-2 (20 U/ml). Cells were harvested at the designated times and Western blots using anti-JAK3, anti-actin, or anti phosphoSTAT5 (pSTAT5) were prepared as described in Example 3.

HIV-1 LTR = test: HIV-1 LTR-luciferase activity in resting CD4+ T cells; format: cell-based; settings: FIG. 17
Source text: Resting CD4^+ T cells were transfected with a construct containing luciferase under the control of HIV-1 LTR or a control luciferase construct (Dual-luciferase© Reporter Assay System, Promega, Madison, Wis.). The cells were also optionally transfected with an expression vector encoding STAT5. […] The luciferase activity of the cellular lysates was subsequently measured.

[4] = system: CD4+ T cells from HIV seropositive individuals; settings: in vitro; Adachi et al. 1996; cited from earlier work
JAK3 [5] = test: JAK3 expression and tyrosine phosphorylation (immunoprecipitation/Western blot) in TCR/CD3-stimulated CD4+ T cells with or without prior CD4 ligation; format: cell-based, human; settings: 20 U/ml cytokine; FIG. 4
Description: In this experiment, the present inventors determined the activation status of JAK3 in CD4^+ T cells which were activated through the TCR subsequent to CD4 ligation.
Briefly, the purified CD4^+ T cells were incubated with or without gp120 and anti-gp120 antibody or anti-CD4 for 1 hour at 37° C. 3×10^6 cells per well were incubated at 37° C. in an anti-CD3 mAb coated (anti-CD3, OKT3, 50 μg/ml, ATCC) 12-well plate. Cells were harvested after various times and lysed in Tris-buffered saline (TBS) containing 1% NP-40, phosphatase inhibitors and protease inhibitors. […] The proteins were transferred to nitrocellulose membrane and immunoblotted with antiphosphotyrosine mAb (anti-P-Tyr, Ab-2, Oncogene Science) Positive protein bands were detected with horseradish peroxidase (HRP)-conjugated goat anti-mouse IgG (Jackson ImmunoResearch) and SuperSignal Substrate (SSS, Pierce). […]
In some experiments, 1.5×10^6 cell equivalents of post-nuclear lysate were boiled with sample buffer and separated by 7.5% SDS-PAGE. Nitrocellulose membrane was immunoblotted with (anti-JAK3 and then stripped and immunoblotted with anti-actin mAb (anti-actin, Sigma), as described above. Optical density (O.D.) of positive bands was measured with the Stratagene Eagle Eye II. […]

IL-2: cytokine which binds to receptors on T cells having γc; recombinant, R&D Systems
HIV LTR activity (luciferase) (HIV LTR): significant increase in activity | anti-TCR induced proliferative response of CD4-ligated T cells ([1]; 20 U/ml cytokine, gp120 or anti-CD4 ligation before plate-bound anti-TCR, 3 days, FIG. 1): restored the proliferative response | rescue of CD4 primed T cells by late cytokine addition ([1]; added after 24 hrs of activation, data not shown): failed to rescue | activation-induced CD25 expression on CD4 primed T cells (IL-2R (α-chain, CD25)): restored activation-induced CD25 expression | JAK3 expression in unstimulated T cells (JAK3 [2]): significant increase | JAK3 kinase activity (phosphorylation of STAT5) in T lymphocytes of HIV-infected patient (JAK3 [3]): restored the JAK3 kinase activity; also recorded: restores JAK3 kinase activity | activity from the HIV-1 LTR (luciferase activity), IL-2 in combination with STAT5 (HIV-1 LTR; IL-2 plus STAT5 expression vector): decreased the activity | activity from the HIV-1 LTR (luciferase activity) (HIV-1 LTR; STAT5 expression vector or IL-2 for 1 hour): did not further increase | apoptosis of CD4+ T cells [4]: prevents apoptosis | reversal of gp120 or anti-CD4 induced inhibition of JAK3 expression and activation (JAK3 [5]): completely reversed
